Assays:
BaLAAO = BaLAAO (Bothrops atrox, UniProt P0CC17); test: H2O2 production, peroxidase/o-dianisidine dye assay, […] nm; details: 10 mM substrate; 0.2 M Tris-HCl pH 8.0; 30 °C; 1 h
BmLAAO = BmLAAO (Bothrops moojeni, UniProt Q6TGQ8); test: as above; details: 10 mM substrate; 0.2 M Tris-HCl pH 8.0; 30 °C; 1 h

Protein sequences, listed by entry. Tags and fused reporters are not part of them. Residues count along the entry.
UniProt P0CC17, 19-506 limits assumed: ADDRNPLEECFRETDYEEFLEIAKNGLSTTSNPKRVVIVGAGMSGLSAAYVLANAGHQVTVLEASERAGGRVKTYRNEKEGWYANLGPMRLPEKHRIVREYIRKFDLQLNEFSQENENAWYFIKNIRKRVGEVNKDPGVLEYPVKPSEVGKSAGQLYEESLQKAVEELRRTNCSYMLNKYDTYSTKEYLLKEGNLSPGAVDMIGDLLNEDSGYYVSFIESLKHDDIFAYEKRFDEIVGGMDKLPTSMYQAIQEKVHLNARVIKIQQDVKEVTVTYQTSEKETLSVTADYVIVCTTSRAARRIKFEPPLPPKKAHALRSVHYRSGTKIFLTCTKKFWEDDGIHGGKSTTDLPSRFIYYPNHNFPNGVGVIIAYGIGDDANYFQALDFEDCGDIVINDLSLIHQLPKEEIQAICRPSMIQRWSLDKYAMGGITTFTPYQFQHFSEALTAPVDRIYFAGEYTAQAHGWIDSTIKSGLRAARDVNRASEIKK
UniProt Q6TGQ8, 19-502 limits assumed: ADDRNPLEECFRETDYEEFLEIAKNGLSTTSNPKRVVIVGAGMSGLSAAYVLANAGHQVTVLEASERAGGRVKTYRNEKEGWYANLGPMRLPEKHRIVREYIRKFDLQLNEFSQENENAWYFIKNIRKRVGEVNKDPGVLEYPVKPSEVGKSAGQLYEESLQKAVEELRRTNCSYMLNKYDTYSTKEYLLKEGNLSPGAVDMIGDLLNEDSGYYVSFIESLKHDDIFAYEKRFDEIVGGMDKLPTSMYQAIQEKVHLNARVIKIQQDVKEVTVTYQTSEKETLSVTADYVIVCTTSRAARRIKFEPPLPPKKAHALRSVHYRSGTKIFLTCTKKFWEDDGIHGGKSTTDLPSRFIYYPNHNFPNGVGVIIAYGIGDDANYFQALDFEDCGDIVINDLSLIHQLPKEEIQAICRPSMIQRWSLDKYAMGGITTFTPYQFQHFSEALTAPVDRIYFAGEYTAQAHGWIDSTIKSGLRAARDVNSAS

CC(C)C[C@H](N)C(=O)O
H2O2 production, peroxidase/o-dianisidine dye assay, 410 nm (BaLAAO): BaLAAO exhibited had high specific activity towards L-Met, L-Leu, L-His
H2O2 production, peroxidase/o-dianisidine dye assay, 410 nm (BmLAAO): BmLAAO showed high specificity towards L-Leu L-Met L-His L-Trp L-Tyr L-Phe L-Val

CSCC[C@H](N)C(=O)O
H2O2 production, peroxidase/o-dianisidine dye assay, 410 nm (BaLAAO): BaLAAO exhibited had high specific activity towards L-Met, L-Leu, L-His
H2O2 production, peroxidase/o-dianisidine dye assay, 410 nm (BmLAAO): BmLAAO showed high specificity towards L-Leu L-Met L-His L-Trp L-Tyr L-Phe L-Val

— publication PMC8381740, “P-I metalloproteinases and L-amino acid oxidases from Bothrops species inhibit angiogenesis” (2021)
